Pooled drug test results. Numbers come from NIAID ChemDB, via PubChem.

Shared fields: toxicity to cultured cells; cell line: MT-4; endpoint: CC50

CCn: concentration that lowers growth or viability of the cells by n%.

smiles | result
CCCOC12CS(=O)(=O)OC13[C@@H](CN2)O[C@@H](n1cc(C)c(=O)[nH]c1=O)[C@@H]3O | >250 µM
O=C1OC2OC3COC(=O)c4cc(O)c(O)c(O)c4-c4c(cc(O)c(O)c4O)C(=O)OC3C(OC(=O)c3cc(O)c(O)c(O)c3)C2OC(=O)c2cc(O)c(O)c(O)c2Oc2cc(cc(O)c2O)C(=O)OC2OC3COC(=O)c4cc(O)c(O)c(O)c4-c4c(cc(O)c(O)c4O)C(=O)OC3C(OC(=O)c3cc(O)c(O)c(O)c3)C2OC(=O)c2cc(O)c(O)c(O)c2Oc2cc1cc(O)c2O | 75.5 µg/mL
C=C(C)[C@@H]1CC[C@]2(C(=O)NCCCCCCCCCCC(=O)O)CC[C@]3(C)[C@H](CC[C@@H]4[C@@]5(C)CC[C@H](OC(=O)CC(C)(C)C(=O)O)C(C)(C)[C@@H]5CC[C@]43C)[C@@H]12 | 6 µM
Cc1cn([C@@H]2O[C@@H]3CN[C@@]4(OCCO)CS(=O)(=O)O[C@@]34[C@H]2O[Si](C)(C)C(C)(C)C)c(=O)[nH]c1=O | 59 µM
Nc1nc(=O)n([C@H]2CC[C@@H](CO)O2)cc1F | >436 µM
C=C(C)[C@@H]1CC[C@]2(C(=O)N[C@@H](CC(C)C)C(=O)O)CC[C@]3(C)[C@H](CC[C@@H]4[C@@]5(C)CC[C@H](OC(=O)CC(C)(C)C(=O)O)C(C)(C)[C@@H]5CC[C@]43C)[C@@H]12 | 10 µM
Nc1nc2c(ncn2[C@@H]2O[C@H](CO)[C@H](F)[C@H]2O)c(=O)[nH]1 | >490 µM
C=C(C)[C@@H]1CC[C@]2(C(=O)N[C@@H](CC(C)C)C(=O)O)CC[C@]3(C)[C@H](CC[C@@H]4[C@@]5(C)CC[C@H](OC(=O)C(C)(C)CC(=O)O)C(C)(C)[C@@H]5CC[C@]43C)[C@@H]12 | 12 µM
Cn1c(Sc2ccncc2)c([N+](=O)[O-])c(=O)n(C)c1=O | 11.6 µg/mL
O=S(=O)(O)O.O=S(=O)(O)O.O=S(=O)(O)O.O=S(=O)(O)O.O=S(=O)(O)O.O=S(=O)(O)O.O=S(=O)(O)O.O=S(=O)(O)O.O=S(=O)(O)O.O=S(=O)(O)O.O=S(=O)(O)O.O=S(=O)(O)O.OC[C@H]1O[C@@H]2O[C@H]3[C@H](O)[C@@H](O)[C@@H](O[C@H]4[C@H](O)[C@@H](O)[C@@H](O[C@H]5[C@H](O)[C@@H](O)[C@@H](O[C@H]6[C@H](O)[C@@H](O)[C@@H](O[C@H]7[C@H](O)[C@@H](O)[C@@H](O[C@H]1[C@H](O)[C@H]2O)O[C@@H]7CO)O[C@@H]6CO)O[C@@H]5CO)O[C@@H]4CO)O[C@@H]3CO | >2500 µg/mL
Nc1nccc2nn([C@H]3C[C@H](O)[C@@H](CO)O3)nc12 | >396 µM
CC(C)[C@H](NC(=O)c1cccnc1)C(=O)N(Cc1ccccc1)CC(O)C(Sc1ccccc1)N(Cc1ccccc1)C(=O)[C@@H](NC(=O)c1cccnc1)C(C)C | 100 µM
CCCC(C(=O)O)c1c(-c2ccccc2)c2cc(Cl)ccc2n(CCC)c1=O | 64.4 µM
O=C1O[C@H]2[C@@H]3OC(=O)c4cc(O)c(O)c(O)c4-c4c(cc(Oc5c(C(=O)O[C@H]6[C@H](OC(=O)c7cc(O)c(O)c(O)c7)O[C@H](COC(=O)c7cc(O)c(O)c(O)c7)[C@@H](OC(=O)c7cc(O)c(O)c(O)c7)[C@@H]6OC(=O)c6cc(O)c(O)c(O)c6)cc(O)c(O)c5O)c(O)c4O)C(=O)OC[C@H]2O[C@@H](OC(=O)c2cc(O)c(O)c(O)c2)[C@@H]3OC(=O)c2cc(O)c(O)c3c2[C@H]2C(=O)[C@@](O)(O3)C(=O)C=C12 | 29.3 µg/mL
Nc1nc(=O)n([C@H]2CC[C@H](CO)O2)cc1F | >436 µM
O=C1c2ccccc2C(=O)c2c1ccc(O)c2O | 79 µg/mL
O=C1OCC(O)C(C2OC(=O)c3cc(O)c(O)c(O)c3-c3c(O)c(O)c(O)c4c3C(=O)OC2C4c2c(O)cc(O)c3c2OC(c2ccc(O)c(O)c2)C(O)C3)OC(=O)c2cc(O)c(O)c(O)c2-c2c1cc(O)c(O)c2O | 46 µg/mL
C=CCO[C@]12CS(=O)(=O)O[C@@]13[C@@H](CN2)O[C@@H](n1cc(C)c(=O)[nH]c1=O)[C@@H]3O[Si](C)(C)C(C)(C)C | 24 µM
CCCn1c(Sc2ccncc2)c([N+](=O)[O-])c(=O)[nH]c1=O | 76.63 µg/mL
C[C@@]1(CO)CC[C@H](c2c[nH]c3c(N)ncnc23)C1 | >100 µM
O=C1O[C@H]2[C@@H](OC(=O)c3cc(O)c(O)c(O)c3)[C@H](OC(=O)c3cc(O)c(O)c4c3C3C1=CC(=O)C(O)(O4)C3(O)O)[C@@H]1OC(=O)c3cc(O)c(O)c(O)c3-c3c(cc(O)c(O)c3O)C(O)OC[C@H]2O1 | 18.3 µg/mL
CC(C)COC(=O)N(Cc1ccccc1)CC(O)C(Sc1ccccc1)N(Cc1ccccc1)C(=O)OCC(C)C | 50 µM
Nc1ccn([C@H]2CC[C@@H](CO)O2)c(=O)n1 | 47.3 µM
CCCOC12CS(=O)(=O)OC13[C@@H](CN2)O[C@@H](n1cc(C)c(=O)[nH]c1=O)[C@@H]3O[Si](C)(C)C(C)(C)C | 21.6 µM
OC[C@H]1O[C@@H](n2nc3ccnc(Cl)c3n2)[C@H](O)[C@@H]1O | >398 µM
Nc1ccn([C@H]2CC[C@H](CO)O2)c(=O)n1 | >473 µM
CC(C)[C@H](NC(=O)OCc1ccccc1)C(=O)NC(Sc1ccccc1)C(O)C(NC(=O)[C@@H](NC(=O)OCc1ccccc1)C(C)C)Sc1ccccc1 | 50 µM
Nc1nc2c(ncn2[C@@H]2O[C@H](CO)C3OC32)c(=O)[nH]1 | >940 µM
Cc1cn([C@@H]2O[C@@H]3CN[C@@]4(OCC(C)(C)C)CS(=O)(=O)O[C@@]34[C@H]2O)c(=O)[nH]c1=O | 237 µM
O=c1c([N+](=O)[O-])c(Sc2ccccc2)nc2[nH]c(-c3ccccc3)cn12 | 2.56 µg/mL
Cc1cn([C@@H]2O[C@@H]3CN[C@@]4(OCCO)CS(=O)(=O)O[C@@]34[C@H]2O)c(=O)[nH]c1=O | >250 µM
C=C(C)[C@@H]1CC[C@]2(C(=O)NCCCCCCCC(=O)Nc3ccc(C(=O)O)cc3)CC[C@]3(C)[C@H](CC[C@@H]4[C@@]5(C)CC[C@H](OC(=O)CC(C)(C)C(=O)O)C(C)(C)[C@@H]5CC[C@]43C)[C@@H]12 | 9.5 µM
O=C(O[C@H]1CCOC1)N(Cc1ccccc1)CC(O)C(Sc1ccccc1)N(Cc1ccccc1)C(=O)O[C@H]1CCOC1 | 50 µM
CCCn1c(Sc2ccccc2)c([N+](=O)[O-])c(=O)[nH]c1=O | >72.9 µg/mL
Nc1ncnc2c1nnn2[C@@H]1O[C@H](CO)[C@@H](O)[C@H]1O | 0.3 µM
CC(C)[C@H](NC(=O)OC(C)(C)C)C(=O)N(Cc1ccccc1)CC(O)C(Sc1ccccc1)N(Cc1ccccc1)C(=O)[C@@H](NC(=O)OC(C)(C)C)C(C)C | 50 µM
O=C(O[C@@H]1O[C@@H]2COC(=O)c3cc(O)c(O)c(O)c3-c3c(cc(O)c(O)c3O)C(=O)O[C@H]2[C@H](OC(=O)c2cc(O)c(O)c(O)c2)[C@H]1OC(=O)c1cc(O)c(O)c(O)c1Oc1cc2c(c(O)c1O)Oc1cc(cc(O)c1O)C(=O)O[C@@H]1O[C@@H]3COC(=O)c4cc(O)c(O)c(O)c4-c4c(cc(O)c(O)c4O)C(=O)O[C@H]3[C@H](OC(=O)c3cc(O)c(O)c(O)c3)[C@H]1OC2=O)c1cc(O)c(O)c(O)c1 | 58.6 µg/mL
Nc1nc(Sc2ccccc2)c([N+](=O)[O-])c(=O)[nH]1 | 88.07 µg/mL
CC(C)(C)NC(=O)[C@@H]1CN(Cc2cncs2)CCN1C[C@@H](O)C[C@@H](Cc1ccccc1)C(=O)N[C@H]1c2ccccc2C[C@H]1O | >100 µM
CO[C@]12CS(=O)(=O)O[C@@]13[C@@H](CN2)O[C@@H](n1cc(C)c(=O)[nH]c1=O)[C@@H]3O | >250 µM
O=C(O[C@@H]1O[C@@H]2COC(=O)c3cc(O)c(O)c(O)c3-c3c(cc(O)c(O)c3O)C(=O)O[C@H]2[C@@H]2OC(=O)c3cc(O)c(O)c(O)c3-c3c(cc(O)c(O)c3O)C(=O)O[C@@H]12)c1cc(O)c(O)c(O)c1 | 20.9 µg/mL
Nc1nccc2nn([C@@H]3O[C@H](CO)[C@@H](O)[C@H]3O)nc12 | 358 µM

3 of the rows above, restated:

smiles	result
CCCOC12CS(=O)(=O)OC13[C@@H](CN2)O[C@@H](n1cc(C)c(=O)[nH]c1=O)[C@@H]3O	>250 µM
Nc1nc(=O)n([C@H]2CC[C@H](CO)O2)cc1F	>436 µM
Nc1nc2c(ncn2[C@@H]2O[C@H](CO)C3OC32)c(=O)[nH]1	>940 µM

Rows are shuffled and stem from different studies.